From US12012411B2, “Viral replication inhibitors” (Katholieke Universiteit Leuven, priority 2011, dated 2024) come the findings set out here.

Structures are written as SMILES.

The test system of this data set is DENV-2 NGC. As to the kind of experiment: Antiviral activity against DENV-2 NGC in Vero-B cells (viral RNA load by RT-qPCR). Format: cell-based, Dengue virus. Particulars: DENV-2 in Vero-B cells (Table 3); ratio CC50 / EC50.
Consider `O=C(c1c[nH]c2ccccc12)C(Nc1ccc2[nH]c(=O)oc2c1)c1ccccc1` (stereo not shown) [CPD-057], for which the SI turned out to be 2. For `O=C(c1c[nH]c2ccccc12)C(Nc1cccc(-n2cncn2)c1)c1ccccc1` (stereo not shown) [CPD-058] the value was 22; for `O=C(c1c[nH]c2ccccc12)C(Nc1cccc(-c2cnco2)c1)c1ccccc1` (stereo not shown) [CPD-059], 13. For `COc1cccc(NC(C(=O)c2c[nH]c3ccccc23)c2ccc3c(c2)n(C)c(=O)n3C)c1` (stereo not shown) [CPD-060] the value was >10. As to `COc1cc(NC(C(=O)c2c[nH]c3ccccc23)c2ccc(C#N)cc2)ccn1` (stereo not shown) [CPD-061], the SI turned out to be 34. The figure for `COc1cc(C)nc(NC(C(=O)c2c[nH]c3ccccc23)c2ccccc2)n1` (stereo not shown) [CPD-062] is >230; for `COc1cccc(NC(C(=O)c2c[nH]c3ccccc23)c2ccc(O)nc2)c1` (stereo not shown) [CPD-063] it is >9; for `COc1cc(NC(C(=O)c2c[nH]c3ccccc23)c2cn3ccccc3n2)ccn1` (stereo not shown) [CPD-064] it is 8. For `NC(=O)c1cccc(NC(C(=O)c2c[nH]c3ccccc23)c2ccccc2)c1` (stereo not shown) [CPD-065] the value was 7.

For `COc1ccnc(NC(C(=O)c2c[nH]c3ccccc23)c2ccccc2)c1` (stereo not shown) [CPD-066], the SI is given as 15. For `COc1cncc(NC(C(=O)c2c[nH]c3ccccc23)c2ccccc2)c1` (stereo not shown) [CPD-067], the SI is reported as 546. The figure for `CCOC(=O)c1cccc(NC(C(=O)c2c[nH]c3ccccc23)c2ccccc2)c1` (stereo not shown) [CPD-068] is 9. `COc1cc(NC(C(=O)c2c[nH]c3cc(Cl)ccc23)c2cn3ccccc3n2)ccn1` (stereo not shown) [CPD-069]: the SI came to 33.

With `COc1nc(NC(C(=O)c2c[nH]c3ccccc23)c2ccccc2)ns1` (stereo not shown) [CPD-070], the SI is on record as 27. For `O=C(O)c1cccc(NC(C(=O)c2c[nH]c3ccccc23)c2ccccc2)c1` (stereo not shown) [CPD-071] the value was 2; for `COc1cc(NC(C(=O)c2c[nH]c3ccccc23)c2ccccc2)ncn1` (stereo not shown) [CPD-072], 10. With `COc1cc(NC(C(=O)c2c[nH]c3cc(Cl)ccc23)c2ccccc2)ccn1` (stereo not shown) [CPD-073], the SI stood at 32. The figure for `COc1cc(NC(C(=O)c2c[nH]c3ccccc23)c2cccnc2)ccn1` (stereo not shown) [CPD-074] is 95; for `COc1cc(NC(C(=O)c2c[nH]c3cc(F)ccc23)c2ccccc2)ccn1` (stereo not shown) [CPD-075] it is 67. For `COc1ccc2c(C(=O)C(Nc3ccnc(OC)c3)c3ccccc3)c[nH]c2c1` (stereo not shown) [CPD-076] the value was 31. The figure for `COc1cccc(NC(C(=O)c2c[nH]c3cc(OC)ccc23)c2ccccc2)c1` (stereo not shown) [CPD-077] is 313. Turning to `COc1ccc2[nH]cc(C(=O)C(Nc3ccnc(OC)c3)c3ccccc3)c2c1` (stereo not shown) [CPD-078], the SI is 9.

For the compound `COc1cccc(NC(C(=O)c2c[nH]c3ccccc23)c2cn3c(n2)COCC3)c1` (stereo not shown) [CPD-080], the SI is reported as >125. For `COc1cc(NC(C(=O)c2c[nH]c3ccccc23)c2cn3c(F)cccc3n2)ccn1` (stereo not shown) [CPD-081] the value was 5; for `COc1cc(NC(C(=O)c2c[nH]c3ccccc23)c2cscn2)ccn1` (stereo not shown) [CPD-082], 2. The figure for `COc1cccc(NC(C(=O)c2c[nH]c3ccccc23)c2cc3ccccn3n2)c1` (stereo not shown) [CPD-083] is 941; for `COc1cccc(NC(C(=O)c2c[nH]c3c(Cl)cccc23)c2ccccc2)c1` (stereo not shown) [CPD-084] it is >4185. Regarding `COC(=O)c1ccc2c(C(=O)C(Nc3cccc(OC)c3)c3ccccc3)c[nH]c2c1` (stereo not shown) [CPD-085], the SI was 227. `COc1cccc(NC(C(=O)c2c[nH]c3ccc(Cl)cc23)c2ccccc2)c1` (stereo not shown) [CPD-086]: the SI is recorded as 329. For the compound `COc1cc(NC(C(=O)c2c[nH]c3ccccc23)c2ccccc2)nc(OC)n1` (stereo not shown) [CPD-087], the SI is given as >161. Consider `COc1cccc(NC(C(=O)c2c[nH]c3ccccc23)c2cn3cccc(C)c3n2)c1` (stereo not shown) [CPD-088], for which the SI is >48.

As for `COc1ccnc(NC(C(=O)c2c[nH]c3ccccc23)c2ccccc2)n1` (stereo not shown) [CPD-089], the SI was >208. For the compound `COc1cc(NC(C(=O)c2c[nH]c3ccccc23)c2ccc(F)cc2)ccn1` (stereo not shown) [CPD-090], the SI worked out at 5. Consider `COc1cccc(NC(C(=O)c2c[nH]c3ccc(OC)cc23)c2ccccc2)c1` (stereo not shown) [CPD-092], for which the SI is reported as 184. Regarding `COc1cc(NC(C(=O)c2c[nH]c3cc(C#N)ccc23)c2ccccc2)ccn1` (stereo not shown) [CPD-093], the SI was 5. In the case of `COc1cccc(NC(C(=O)c2c[nH]c3cc(C#N)ccc23)c2ccccc2)c1` (stereo not shown) [CPD-094], the SI amounted to 77. On to `COc1cccc(NC(C(=O)c2c[nH]c3ccccc23)c2cn3ccc(C)cc3n2)c1` (stereo not shown) [CPD-096], for which the SI was >42. For `COc1cc(NC(C(=O)c2c[nH]c3ccccc23)c2ccc3[nH]ccc3c2)ccn1` (stereo not shown) [CPD-097] the value was 5. The figure for `COc1cccc(NC(C(=O)c2c[nH]c3ccccc23)c2cn3cc(C)ccc3n2)c1` (stereo not shown) [CPD-098] is >11; for `COc1cc(NC(C(=O)c2c[nH]c3ccc(Cl)cc23)c2ccccc2)ccn1` (stereo not shown) [CPD-099] it is 7.

As to `COc1cc(NC(C(=O)c2cn(C)c3ccccc23)c2ccccc2)ccn1` (stereo not shown) [CPD-100], the SI was found to be 3. For `COc1cc(NC(C(=O)c2c[nH]c3c(Cl)cccc23)c2ccccc2)ccn1` (stereo not shown) [CPD-101], the SI was 2.

Consider `COc1cccc(NC(C(=O)c2c[nH]c3ccccc23)c2cc(C)no2)c1` (stereo not shown) [CPD-102], for which the SI came to 105. For `COc1cccc(NC(C(=O)c2cn(CCO)c3ccccc23)c2ccccc2)c1` (stereo not shown) [CPD-104], the SI amounted to 186.

As to `COc1cccc(NC(C(=O)c2cn(CCN)c3ccccc23)c2ccccc2)c1` (stereo not shown) [CPD-105], the SI is 11. For `COc1cccc(NC(C(=O)c2cn(CC(=O)O)c3ccccc23)c2ccccc2)c1` (stereo not shown) [CPD-106] the value was >13; for `CCn1nccc1C(Nc1cccc(OC)c1)C(=O)c1c[nH]c2ccccc12` (stereo not shown) [CPD-107], 3. With `COc1cccc(NC(C(=O)c2c[nH]c3ccccc23)c2cn3c(F)cccc3n2)c1` (stereo not shown) [CPD-109], the SI came out at 159. For `COc1cccc(NC(C(=O)c2c[nH]c3ccccc23)c2cn3cc(F)ccc3n2)c1` (stereo not shown) [CPD-110] the value was 127; for `COc1cccc(NC(C(=O)c2cn(S(C)(=O)=O)c3ccccc23)c2ccccc2)c1` (stereo not shown) [CPD-111], >263; for `COc1cccc(NC(C(=O)c2c[nH]c3ccccc23)c2ccc(COCN(C)C)cc2)c1` (stereo not shown) [CPD-112], 4.

Turning to `CCOC(=O)Cn1cc(C(=O)C(Nc2cccc(OC)c2)c2ccccc2)c2ccccc21` (stereo not shown) [CPD-113], the SI is on record as >232.

Turning to `COc1cccc(NC(C(=O)c2cn(CCN(C)C)c3ccccc23)c2ccccc2)c1` (stereo not shown) [CPD-114], the SI turned out to be 48. On to `COc1cccc(N2C(=O)CN(C)n3cc(c4ccccc43)C(=O)C2c2ccccc2)c1` (stereo not shown) [CPD-115], for which the SI was 5. For `COc1cccc(NC(C(=O)c2c[nH]c3cc(Cl)ccc23)c2cc(C)on2)c1` (stereo not shown) [CPD-116] the value was 88; for `COc1cccc(NC(C(=O)c2cn(C)c3ccccc23)c2cc(C)on2)c1` (stereo not shown) [CPD-117], >37; for `COc1cccc(NC(C(=O)c2c[nH]c3cc(Cl)ccc23)c2ccccc2)c1` (stereo not shown) [CPD-118], 943. For the compound `COc1cccc(NC(C(=O)c2c[nH]c3ccc(F)cc23)c2ccccc2)c1` (stereo not shown) [CPD-119], the SI was 372. For `COc1cccc(NC(C(=O)c2c[nH]c3c(Cl)cccc23)c2ccc(C#N)cc2)c1` (stereo not shown) [CPD-120] the value was 674; for `COc1cc(NC(C(=O)c2cn(S(C)(=O)=O)c3ccccc23)c2ccccc2)ccn1` (stereo not shown) [CPD-121], 10. The figure for `COc1cccc(NC(C(=O)c2c[nH]c3cc(C)ccc23)c2ccccc2)c1` (stereo not shown) [CPD-122] is 785; for `COc1cccc(NC(C(=O)c2c[nH]c3cc(F)ccc23)c2ccccc2)c1` (stereo not shown) [CPD-123] it is 337. The figure for `COc1cccc(NC(C(=O)c2c[nH]c3ccccc23)c2ccc(CN(C)C)cc2)c1` (stereo not shown) [CPD-124] is 5; for `COc1cccc(NC(C(=O)c2c[nH]c3ccccc23)c2[nH]cnc2C)c1` (stereo not shown) [CPD-125] it is >19. For `COc1cccc(NC(C(=O)c2c[nH]c3ccc(C#N)cc23)c2ccccc2)c1` (stereo not shown) [CPD-126], the SI was 241. For `COc1cccc(NC(C(=O)c2c[nH]c3ccccc23)c2ccc(CO)cc2)c1` (stereo not shown) [CPD-127] the value was 33; for `COc1cccc(NC(C(=O)c2cn(CCCO)c3ccccc23)c2ccccc2)c1` (stereo not shown) [CPD-128], 113; for `COc1cccc(NC(C(=O)c2c[nH]c3ccc(S(=O)(=O)N(C)C)cc23)c2ccccc2)c1` (stereo not shown) [CPD-129], >99. Turning to `COc1cccc(NC(C(=O)c2c[nH]c3ccc(C)cc23)c2ccccc2)c1` (stereo not shown) [CPD-130], the SI is given as 749. For `COc1cccc(NC(C(=O)c2c[nH]c3ccccc23)c2ccc(C#N)c(F)c2)c1` (stereo not shown) [CPD-132] the value was 235; for `COc1cccc(NC(C(=O)c2c[nH]c3ccccc23)c2c(F)cc(C#N)cc2F)c1` (stereo not shown) [CPD-133], 499; for `COc1cccc(NC(C(=O)c2c[nH]c3cc(O)ccc23)c2ccccc2)c1` (stereo not shown) [CPD-134], 106. The figure for `COc1cccc(NC(C(=O)c2c[nH]c3cc(C(=O)O)ccc23)c2ccccc2)c1` (stereo not shown) [CPD-135] is >3; for `COCCn1cc(C(=O)C(Nc2cccc(OC)c2)c2ccccc2)c2ccccc21` (stereo not shown) [CPD-136] it is >545; for `COc1cccc(NC(C(=O)c2cn(C)c3ccc(F)cc23)c2ccccc2)c1` (stereo not shown) [CPD-137] it is >2762. Consider `COc1cccc(NC(C(=O)c2c[nH]c3ccccc23)c2cccc(C)c2)c1` (stereo not shown) [CPD-138], for which the SI is recorded as 74. With `COc1cccc(NC(C(=O)c2c[nH]c3ccccc23)c2ccc(C)cc2)c1` (stereo not shown) [CPD-139], the SI is recorded as 915. For `COc1cccc(NC(C(=O)c2c[nH]c3cc(CO)ccc23)c2ccccc2)c1` (stereo not shown) [CPD-140] the value was 24; for `COC(=O)c1ccc2[nH]cc(C(=O)C(Nc3cccc(OC)c3)c3ccccc3)c2c1` (stereo not shown) [CPD-142], 137.
